Our source for the IC50 and EC50 values is CN112625136A (SANYOU BIOPHARMACEUTICALS SHANGHAI CO LTD; SHANGHAI ZJ BIO …, dated 2021).

For experiment [1], the target named is T1, S蛋白RBD-mFc (Sinobio, 40592-V05H) (2019-nCoV (SARS-CoV-2)).
T1 construct: domain: RBD; also called Spike-RBD-mFc; Spike RBD-mFc
The experiment is described as follows: FACS blocking of RBD binding to ACE2-HEK293 cells.

Experiment [2] addresses T1, S蛋白RBD-mFc (Sinobio, 40592-V05H). In words: FACS blocking as in Example 6.2: RBD-mFc on ACE2-HEK293 cells.
Experiment [3] shares this target. The experiment is described as follows: ELISA as in Example 5.1, Spike-RBD-mFc coated. Background: An ELISA detects its analyte on a solid surface through an enzyme-linked reagent.

B1: P14-F8-38 (Fc fusion)
chain: EVQLVESGGGLVQPGGSLRLSCAASGFRFGSYTMSWVRQAPGKAPEWVSDINTRGETTRYADSVKGRFTISRDNAKNTLYLQMNSLRAEDTAVYYCAVAASGDTFFGRSDPDYWGQGTLVTVSS[human IgG1 Fc with changes not spelt out]
Consider B1, for which the IC50 (as a rule, the midpoint of a concentration-inhibition curve) in experiment [1] stood at 272 pM.

B2: P14-F8 (Fc fusion)
chain: EVQLVESGGGLVQPGGSLRLSCAASGFRFGSYYMSWVRQAPGKAPEWVSDINTRGETTRYSDSVKGRFTIARDNANNTVFLFMNRLKPEDTAVYYCAVAASGDTFEGRSDPDYWGQGTLVTVSS[human IgG1 Fc with changes not spelt out]
notes: also called P14-F8-Parental; 候选驼源纳米抗体P14-F8
In turn, B2 showed an IC50 in experiment [2] of about 470 pM. In experiment [3], the EC50 (commonly the concentration needed to bring the measured effect to its halfway point) is about 90 pM.
